Data as given in patent publication US20080112933A1 (priority 2004, published 2008).

Key:
lymph node lymphocytes = format: in vivo, mouse; details: lymph node lymphocytes treated with the agent; FIG. 7
bone marrow lin− cells = format: cell-based, mouse; details: bone marrow lin− cells pretreated with the agent; FIG. 5

Substance: pertussis toxin
- homing of lymphocytes to the lymph nodes (lymph node lymphocytes): almost completely abolish lymphocyte homing
- transmigration towards SDF-1α (bone marrow lin− cells): decrease in transmigration similar to that observed for the chemokinesis controls
